{
  "source": "paper PMC12888856",
  "biological_target": "T1, influenza nucleoprotein (NP), recombinant (influenza A virus A/Puerto Rico/8/1934 (H1N1)), P03466",
  "T1 chain": "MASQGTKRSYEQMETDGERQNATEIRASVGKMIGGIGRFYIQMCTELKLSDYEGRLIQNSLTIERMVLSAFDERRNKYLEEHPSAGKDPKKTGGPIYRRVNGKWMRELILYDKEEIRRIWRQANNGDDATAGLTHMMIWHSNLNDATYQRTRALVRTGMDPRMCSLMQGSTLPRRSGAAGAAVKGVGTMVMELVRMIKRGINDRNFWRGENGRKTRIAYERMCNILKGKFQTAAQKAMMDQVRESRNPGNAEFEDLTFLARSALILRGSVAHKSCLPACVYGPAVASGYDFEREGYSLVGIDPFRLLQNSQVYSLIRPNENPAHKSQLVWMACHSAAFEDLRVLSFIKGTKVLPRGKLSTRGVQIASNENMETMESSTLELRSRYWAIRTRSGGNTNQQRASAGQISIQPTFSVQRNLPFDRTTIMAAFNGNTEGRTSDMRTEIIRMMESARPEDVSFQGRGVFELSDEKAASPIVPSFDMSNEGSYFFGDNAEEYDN",
  "assay": "SEC",
  "details": "remark: other sources report otherwise",
  "data": [
    {"binder": "influenza nucleoprotein (NP), recombinant, P03466 1-498 (natural protein) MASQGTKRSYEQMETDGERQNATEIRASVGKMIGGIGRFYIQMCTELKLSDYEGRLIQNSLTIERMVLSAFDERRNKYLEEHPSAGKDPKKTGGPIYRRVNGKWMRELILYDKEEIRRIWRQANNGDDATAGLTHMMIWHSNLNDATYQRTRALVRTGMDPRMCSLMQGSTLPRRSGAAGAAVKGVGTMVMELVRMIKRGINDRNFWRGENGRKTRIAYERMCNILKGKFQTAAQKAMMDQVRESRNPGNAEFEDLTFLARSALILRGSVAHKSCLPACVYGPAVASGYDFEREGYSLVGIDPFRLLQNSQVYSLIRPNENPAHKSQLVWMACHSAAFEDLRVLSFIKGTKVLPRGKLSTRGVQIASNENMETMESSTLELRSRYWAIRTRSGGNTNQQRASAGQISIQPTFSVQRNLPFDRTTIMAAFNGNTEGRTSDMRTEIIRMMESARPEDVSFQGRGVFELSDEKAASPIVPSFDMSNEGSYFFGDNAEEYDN", "values": [
      {"measurement": "stoichiometry N", "value": 3}
    ]}
  ]
}
